{"source": "patent US11926642B2", "about": "“Compounds and methods for the treatment of COVID-19” (priority 2020, dated 2024)", "experiment": "24 hour continuous IV infusion GLP study in rats"}
{"smiles": "COc1cccc2[nH]c(C(=O)N[C@@H](CC(C)C)C(=O)N[C@@H](C[C@@H]3CCNC3=O)C(=O)COP(=O)(O)O)cc12", "note": "[Example 49]", "values": [{"measurement": "neurological safety pharmacology (functional observation battery)", "value": "no effects on neurological safety pharmacology parameters"}]}
